Values from PubChem BioAssay AID504761 (Drosophila RNAi Screening Center, 2011).

- Screen: 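Genome-wide fly cell screen for genes dengue virus requires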 (primary screen)
- System: D.Mel-2 cells from Drosophila
- Reagents: long dsRNA against Drosophila genes
- Conditions: infection with dengue virus type 2; dose and infection time not stated
- Detection: 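Per well on two replicate plates, imaging gave the percent of cells positive for viral envelope protein, ranked by infection, and a nuclear count of cells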
- Direction: infection score: higher = more virus-infected cells; cell count: higher = more cells in the well
- Call rule: 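Low infection ranks in the two replicates (chance level up to 0.065) followed by a retest with a 1.5-fold or larger significant decrease, p below 0.05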
- Meaning of the calls: active = confirmed: knock-down lowers infection; inactive = not picked or not confirmed
The screen tested about 22,000 reagents; this is a random part of those that have a named target and a result. Over the whole deposit, 116 (0.52%) were called active. 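Calls depend on retest data that are not deposited; infection was ranked per plate without normalising between plates; the unit of the infection score is not given.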 Raw values vary from plate to plate and are shown uncorrected. Unmarked entries are inactive. Names joined by + are all predicted targets of the reagent. Not given: the amount of reagent, the time to read-out.

TyrR (Tyramine receptor) [DRSC16242] scored infection score, replicate 1 = 3.73; infection score, replicate 2 = 4.34; cell count, replicate 1 = 6079; cell count, replicate 2 = 5915.
Silencing of CG5539 [DRSC04510] came out at: infection score, replicate 1 = 3.55; infection score, replicate 2 = 4.2; cell count, replicate 1 = 6598; cell count, replicate 2 = 6828.
Against CG11414 [DRSC04110], the values are infection score, replicate 1 = 17; infection score, replicate 2 = 44; cell count, replicate 1 = 6652; cell count, replicate 2 = 5419.
CG9068 [DRSC07329] scored infection score, replicate 2 = 2.88; cell count, replicate 1 = 464; cell count, replicate 2 = 1597.
For CG33292 (retired record) [DRSC22923], the values are infection score, replicate 1 = 0.55; infection score, replicate 2 = 1.52; cell count, replicate 1 = 6563; cell count, replicate 2 = 7123.
Depletion of CG33292 (retired record) [DRSC28616] came out at: infection score, replicate 1 = 23.7; infection score, replicate 2 = 5.83; cell count, replicate 1 = 6196; cell count, replicate 2 = 5677.
Against Lon (Lon protease) [DRSC11049], the entry reads infection score, replicate 1 = 12.5; infection score, replicate 2 = 9.26; cell count, replicate 1 = 5626; cell count, replicate 2 = 6148.
For Lon (Lon protease) [DRSC26015], the entry reads infection score, replicate 1 = 4.58; infection score, replicate 2 = 7.02; cell count, replicate 1 = 5720; cell count, replicate 2 = 5837.
Depletion of l(2)k09022 (lethal (2) k09022) [DRSC02108] came out at: infection score, replicate 1 = 9.9; infection score, replicate 2 = 29.7; cell count, replicate 1 = 4827; cell count, replicate 2 = 4565.
CG17059 + Fsn [DRSC26666] scored infection score, replicate 1 = 1.16; infection score, replicate 2 = 1.96; cell count, replicate 1 = 6019; cell count, replicate 2 = 6338.
For CG42557 + CG42558 [DRSC13963] the deposit lists infection score, replicate 1 = 8.87; infection score, replicate 2 = 8.81; cell count, replicate 1 = 6124; cell count, replicate 2 = 6130.
For CG42557 + CG42558 [DRSC16329], the values are infection score, replicate 1 = 4.83; infection score, replicate 2 = 3.25; cell count, replicate 1 = 6206; cell count, replicate 2 = 6731.
Silencing of Snx3 (Sorting nexin 3) [DRSC16027] gave: infection score, replicate 1 = 1.65; infection score, replicate 2 = 5.57; cell count, replicate 1 = 6315; cell count, replicate 2 = 6468.
Snx3 (Sorting nexin 3) [DRSC28751] showed infection score, replicate 1 = 14.8; infection score, replicate 2 = 13.4; cell count, replicate 1 = 4898; cell count, replicate 2 = 3722.

A run of entries taken from the entries so far:
Snx3 (Sorting nexin 3) [DRSC16027] — infection score, replicate 1: 1.65; infection score, replicate 2: 5.57; cell count, replicate 1: 6315; cell count, replicate 2: 6468
Snx3 (Sorting nexin 3) [DRSC28751] — infection score, replicate 1: 14.8; infection score, replicate 2: 13.4; cell count, replicate 1: 4898; cell count, replicate 2: 3722

The listing continues:
Pgant5 (Polypeptide N-Acetylgalactosaminyltransferase 5) [DRSC03149] gave infection score, replicate 1 = 3.54; infection score, replicate 2 = 2.12; cell count, replicate 1 = 5683; cell count, replicate 2 = 6171.
With knock-down of CG5397 [DRSC00683] the results were infection score, replicate 1 = 4.68; infection score, replicate 2 = 2.44; cell count, replicate 1 = 6234; cell count, replicate 2 = 6157.
With knock-down of CG5397 [DRSC28535], the record shows infection score, replicate 1 = 15.4; infection score, replicate 2 = 14.5; cell count, replicate 1 = 6209; cell count, replicate 2 = 2538.
CG16734 [DRSC15143] scored infection score, replicate 1 = 4.19; infection score, replicate 2 = 7.28; cell count, replicate 1 = 6728; cell count, replicate 2 = 7030.
For CG9961 [DRSC23343], the entry reads infection score, replicate 1 = 2.47; infection score, replicate 2 = 3; cell count, replicate 1 = 6960; cell count, replicate 2 = 6974.
CG9961 [DRSC25842] gave infection score, replicate 1 = 2.68; infection score, replicate 2 = 12.8; cell count, replicate 1 = 6406; cell count, replicate 2 = 5581.
With knock-down of CG42326 [DRSC06483], the record shows infection score, replicate 1 = 15.7; infection score, replicate 2 = 17.5; cell count, replicate 1 = 5602; cell count, replicate 2 = 6700.
With knock-down of CG42326 [DRSC06484], the screen gave infection score, replicate 1 = 13; infection score, replicate 2 = 3.25; cell count, replicate 1 = 6038; cell count, replicate 2 = 6680.
Silencing of CG42326 [DRSC24293] came out at: infection score, replicate 1 = 15.6; infection score, replicate 2 = 9.85; cell count, replicate 1 = 6128; cell count, replicate 2 = 2334.
